Record: PubChem BioAssay AID624099 (ICCB-Longwood, 2012)

Purpose: 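Host factors E2 relies on to silence an HPV18 LCR reporter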 (primary screen)
Cell system: human C33A cervical carcinoma cells (HPV-negative) stably expressing BPV1 E2 and an HPV18 LCR luciferase reporter
Knock-down reagent: siRNA pool against human genes, 40 nM
Timing: 72 h
Measurement: 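HPV18 LCR reporter light per well, converted to plate-wise z-scores that exclude control wells, and averaged over triplicate plates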
Scale: mean z-score and z-score: higher = stronger reporter signal, weaker E2 silencing
Call rule: 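Mean z ≥ 2 together with z ≥ 2 in two or more of the three replicates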
Shown is a random part of about 21,000 deposited reagents. 497 of all reagents (2.4%) were called active. 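Higher z means weaker E2 silencing; only reporter increases were scored, and knock-downs that hurt cell survival may mask genuine repressor factors.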 Reagent sequences are not shown.

| gene | mean z-score | z-score, replicate A | z-score, replicate B | z-score, replicate C | call |
| --- | --- | --- | --- | --- | --- |
| SNTN | 0.34 | 0.56 | 0.45 | 0.02 | inactive |
| SASH1 | 1.19 | 1.33 | 1.02 | 1.21 | inactive |
| SH3BP2 | -0.37 | -0.33 | -0.35 | -0.43 | inactive |
| TPM4 | 0.16 | -0.13 | 0.2 | 0.42 | inactive |
| OR1A2 | -0.24 | -0.35 | -0.12 | -0.26 | inactive |
| TMCO2 | -1.82 | -1.65 | -1.97 | -1.83 | inactive |
| LRTM3 | -0.37 | -0.35 | -0.35 | -0.42 | inactive |
| VPS13B | 0.43 | -0.15 | 0.64 | 0.81 | inactive |
| ZNF765 | -0.75 | -0.9 | -0.71 | -0.63 | inactive |
| RHOT1 | -1.15 | -1.34 | -1.31 | -0.81 | inactive |
| TRIM37 | -0.37 | -0.23 | -0.43 | -0.46 | inactive |
| GRAP | 0.21 | -0.13 | 0.32 | 0.45 | inactive |
| TGOLN2 | -0.8 | -0.81 | -0.63 | -0.96 | inactive |
| ZNF544 | 0.61 | 0.6 | 0.27 | 0.97 | inactive |
| MUL1 | -0.36 | -0.84 | -0.43 | 0.17 | inactive |
| BRCC3 | 0.06 | 0.4 | -0.18 | -0.04 | inactive |
| AK7 | 0.08 | -0.26 | 0.46 | 0.04 | inactive |
| PRG4 | -1.37 | -1.14 | -1.51 | -1.44 | inactive |
| IFNA13 | 0.13 | 0.15 | 0.13 | 0.12 | inactive |
| FZD3 | 0.81 | 0.78 | 0.83 | 0.83 | inactive |
| TRARG1 | 1.51 | 1.54 | 1.43 | 1.56 | inactive |
| SERPINF2 | 1.2 | 1.27 | 0.92 | 1.41 | inactive |
| RANBP3L | -0.04 | 0.04 | 0.02 | -0.17 | inactive |
| HILPDA | 0.55 | 0.79 | 0.39 | 0.48 | inactive |
| LOC402687 (retired record) | -0.18 | -0.34 | 0 | -0.2 | inactive |
| NLRP3 | -0.36 | -0.24 | -0.33 | -0.52 | inactive |
| PYROXD2 | 1.01 | 1.45 | 0.89 | 0.7 | inactive |
| RNASEK | 1.02 | 1.22 | 0.77 | 1.07 | inactive |
| LOC388166 (retired record) | 1.41 | 1.25 | – | 1.58 | inactive |
| CABLES2 | 0.48 | 0.7 | 0.31 | 0.43 | inactive |
| KIFC1 | 1.21 | 1.26 | 1.18 | 1.2 | inactive |
| DHX33 | 1.35 | 1.04 | 1.39 | 1.61 | inactive |
| LINC03103 | -1.31 | -1.14 | -1.41 | -1.39 | inactive |
| COPS7B | 0.9 | 0.85 | 1.04 | 0.8 | inactive |
| CYP4F12 | -2.19 | -2.13 | -2.53 | -1.92 | inactive |

Part of the list above, set out differently.
gene | mean z-score | z-score, replicate A | z-score, replicate B | z-score, replicate C | call
RNASEK | 1.02 | 1.22 | 0.77 | 1.07 | inactive
LOC388166 (retired record) | 1.41 | 1.25 | – | 1.58 | inactive
CABLES2 | 0.48 | 0.7 | 0.31 | 0.43 | inactive

The list goes on:
| gene | mean z-score | z-score, replicate A | z-score, replicate B | z-score, replicate C | call |
| --- | --- | --- | --- | --- | --- |
| MGC27382 | 0.36 | 0.67 | 0.02 | 0.38 | inactive |
| EGR4 | 1.22 | 1.05 | 0.83 | 1.78 | inactive |
| KCTD14 | -0.97 | -0.81 | -0.95 | -1.15 | inactive |
| GAPVD1 | -0.53 | -0.5 | -0.63 | -0.46 | inactive |
| KRTAP10-4 | 0.31 | 0.11 | 0.37 | 0.45 | inactive |
| NSMF | -1.5 | -1.38 | -1.46 | -1.66 | inactive |
| C12orf57 | -0.32 | -0.63 | -0.15 | -0.17 | inactive |
| TOP2A | 0.49 | 0.43 | 0.54 | 0.51 | inactive |
| ATP5MC2 | -0.77 | -0.49 | -0.68 | -1.16 | inactive |
| CSNK1G3 | 0.45 | 0.53 | 0.44 | 0.39 | inactive |
| KRT81 | -1.85 | -2 | -1.49 | -2.07 | inactive |
| GNPDA1 | -0.4 | -0.45 | -0.37 | -0.39 | inactive |
| CCDC61 | 1.14 | 1.2 | 1.21 | 1.01 | inactive |
| PSMD4 | 0.53 | 0.7 | 0.59 | 0.31 | inactive |
| TMEM11 | -1.22 | -0.92 | -1.58 | -1.16 | inactive |
| EXD1 | 0.17 | -0.39 | 0.45 | 0.46 | inactive |
| TPK1 | -1.17 | -1.27 | -1.27 | -0.98 | inactive |
| LOC401456 (retired record) | 0.26 | 0.47 | -0.09 | 0.41 | inactive |
| AKAP3 | -0.52 | -0.46 | -0.51 | -0.6 | inactive |
| RPGRIP1 | -0.18 | -0.5 | -0.13 | 0.09 | inactive |
| TSPAN18 | -1.13 | -1.39 | -1 | -1.01 | inactive |
| APCDD1L | -0.61 | -0.63 | -0.65 | -0.54 | inactive |
